The text below walks through data of US9957247B2, “SecA inhibitors and methods of making and using thereof” (Georgia State University Research Foundation, Inc., priority 2012, dated 2018).

By UniProt entry, the sequences of proteins in these tests, tags left out. Residues count along the entry.
UniProt P10408, 1-610 limits assumed: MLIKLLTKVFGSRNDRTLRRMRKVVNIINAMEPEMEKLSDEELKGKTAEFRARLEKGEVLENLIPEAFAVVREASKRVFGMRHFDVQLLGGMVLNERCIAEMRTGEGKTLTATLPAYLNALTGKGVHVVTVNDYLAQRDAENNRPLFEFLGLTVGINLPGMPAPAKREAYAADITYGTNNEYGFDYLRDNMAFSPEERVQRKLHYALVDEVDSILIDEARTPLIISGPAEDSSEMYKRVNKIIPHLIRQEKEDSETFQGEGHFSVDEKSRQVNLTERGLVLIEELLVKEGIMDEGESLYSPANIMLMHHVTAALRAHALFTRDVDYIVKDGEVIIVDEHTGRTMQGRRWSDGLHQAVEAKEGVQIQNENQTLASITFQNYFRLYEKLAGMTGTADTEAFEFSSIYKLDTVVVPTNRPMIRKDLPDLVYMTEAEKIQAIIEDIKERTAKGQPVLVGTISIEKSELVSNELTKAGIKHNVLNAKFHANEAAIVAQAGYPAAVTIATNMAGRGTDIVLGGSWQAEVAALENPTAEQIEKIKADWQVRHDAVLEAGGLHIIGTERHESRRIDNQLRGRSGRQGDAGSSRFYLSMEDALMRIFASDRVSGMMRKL
UniProt P10408, whole entry, looked up: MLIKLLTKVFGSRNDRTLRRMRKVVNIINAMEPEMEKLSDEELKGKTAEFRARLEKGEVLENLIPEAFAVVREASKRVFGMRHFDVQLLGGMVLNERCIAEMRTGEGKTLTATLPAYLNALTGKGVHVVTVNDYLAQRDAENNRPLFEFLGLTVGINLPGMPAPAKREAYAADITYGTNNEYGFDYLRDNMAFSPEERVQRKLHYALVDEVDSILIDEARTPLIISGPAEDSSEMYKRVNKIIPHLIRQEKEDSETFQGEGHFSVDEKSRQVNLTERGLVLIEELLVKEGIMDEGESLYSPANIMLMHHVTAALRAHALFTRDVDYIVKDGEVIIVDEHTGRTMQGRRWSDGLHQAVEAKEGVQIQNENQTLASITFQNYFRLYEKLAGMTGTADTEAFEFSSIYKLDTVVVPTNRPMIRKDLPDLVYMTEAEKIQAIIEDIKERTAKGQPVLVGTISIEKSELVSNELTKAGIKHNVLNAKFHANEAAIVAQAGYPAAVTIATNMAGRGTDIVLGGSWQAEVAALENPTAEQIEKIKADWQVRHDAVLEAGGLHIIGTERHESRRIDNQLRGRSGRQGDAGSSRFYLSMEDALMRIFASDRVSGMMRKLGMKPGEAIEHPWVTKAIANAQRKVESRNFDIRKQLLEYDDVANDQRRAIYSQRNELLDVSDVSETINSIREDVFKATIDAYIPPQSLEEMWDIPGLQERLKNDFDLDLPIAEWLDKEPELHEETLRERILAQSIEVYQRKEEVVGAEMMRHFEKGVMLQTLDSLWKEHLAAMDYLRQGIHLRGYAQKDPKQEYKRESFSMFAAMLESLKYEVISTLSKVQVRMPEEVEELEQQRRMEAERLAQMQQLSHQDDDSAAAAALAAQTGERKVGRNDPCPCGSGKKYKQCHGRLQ

Where only a bound is given, the exact number is not on record here.

For assay [1], the target named is EcSecA N68 (Escherichia coli, UniProt P10408). Nature of the assay: Intrinsic ATPase of truncated EcSecA N68 (EcN68, unregulated ATPase). It counts as biochemical, E. coli. The settings on record: read-out: IC50, EcN68 SecA ATPase (unregulated ATPase); Example 1, fluorescein analogs.
Assay [2] deals with EcSecA (Escherichia coli, UniProt P10408). Conditions: read-out: IC50, in vitro protein translocation; according to a previous report; cited from earlier work.

The IC50 is the midpoint of a concentration-inhibition curve. Turning to `[N-]=[N+]=[N-]`, the IC50 in assay [1] is above 10 µM; in assay [2], 600 µM.
